Results from paper PMC7132624 (Biochemical and biophysical research communications, 2020).

Target: T1, influenza A/PR/8 NP protein (influenza A/PR/8, UniProt P03466 1-498)
T1 sequence: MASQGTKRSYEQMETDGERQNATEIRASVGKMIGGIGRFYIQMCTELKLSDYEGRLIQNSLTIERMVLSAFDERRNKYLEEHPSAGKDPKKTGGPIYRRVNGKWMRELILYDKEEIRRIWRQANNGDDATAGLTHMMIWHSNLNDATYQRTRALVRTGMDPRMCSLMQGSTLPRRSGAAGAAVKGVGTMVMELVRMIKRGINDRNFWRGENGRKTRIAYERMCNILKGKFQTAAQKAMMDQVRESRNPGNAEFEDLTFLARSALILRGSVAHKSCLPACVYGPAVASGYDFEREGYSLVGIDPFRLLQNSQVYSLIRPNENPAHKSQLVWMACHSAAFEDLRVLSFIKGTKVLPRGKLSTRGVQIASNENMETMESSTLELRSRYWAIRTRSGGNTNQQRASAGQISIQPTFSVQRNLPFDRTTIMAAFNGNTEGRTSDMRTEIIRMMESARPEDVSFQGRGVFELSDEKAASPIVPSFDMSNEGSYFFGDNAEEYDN
Assay: pull-down

MAENDVDNELLDYEDDEVETAAGGDGAEAPAKKDVKGS (domain or fragment, UniProt Q13838 1-38, looked up) [GST-tagged UAP56-NTE_(1-38) (a.a. 1-38)]
binding result: binds

B1: GST-tagged UAP56-Core ([…]) (domain or fragment)
chain: not shown
binding result: binds
